Molecular target: Toll-like Receptor 5, not stated, O60602 21-858
Assay: cell-based or functional assay

## STF2Δ.EIII+
  TLR5 specific-activity relative to STF2.OVA: 10 fold

— patent US20070224205
